Data reported in publication PMC6422694.

System: NC(=O)c1ccc[n+]([C@@H]2O[C@H](COP(=O)(O)OP(=O)(O)OC[C@H]3O[C@@H](n4cnc5c(N)ncnc54)[C@H](O)[C@@H]3O)[C@@H](O)[C@H]2O)c1
Experiment: purified protein
Conditions: pH 8.1

Substance: (Pyricularia oryzae 70-15)
- Km: 857.8 ± 186.9 µM
